Data from publication PMC4997874 (Antimicrobial Agents and Chemotherapy, 2016).
Counter-ions that a name gives are not always drawn.

How the values were obtained:
[1] = test system: PrP^Sc accumulation in persistently infected hTERT-ovine microglia; assay: Standard scrapie cell assay (SSCA), cell-based antiprion activity; conditions: CC50 (WST-1) / TC-EC50 (SSCA)
[2] = test system: PRNP transcripts in PrP^Sc-negative hTERT-ovine microglia; assay: PRNP transcript levels by qRT-PCR; type: cell-based; conditions: 1 μM, 4 days, PrP^Sc-negative cells, normalized to GAPDH, vs vehicle control

SMILES | Selectivity index (CC50/TC-EC50) [1] | Fold change in PRNP transcripts [2]
c1ccc2[nH]c(-c3ccc(-c4ccc(C5=NCCN5)cc4)o3)nc2c1 [DB772, 2-(2-benzimidazolyl)-5-[4-(2-imidazolino)phenyl] furan dihydrochloride] | 4.75 | 
N=C(N)c1ccc(-c2ccc(-c3nc4ccc(C(=N)N)cc4[nH]3)s2)cc1 [DB818A] | > 6.9 | 
c1ccc2[nH]c(-c3ccc(-c4ccc(C5=NCCN5)cc4)s3)nc2c1 [DB932A] | 6.4 | less than 2 fold
Cn1c(-c2ccc(-c3ccc(C4=NCCN4)cc3)o2)nc2ccccc21 [DB948] | 3.5 | less than 2 fold
